PubChem BioAssay AID624099 – ICCB-Longwood, 2012
Purpose: 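Human genes that papillomavirus E2 requires to repress the HPV18 LCR promoter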 (primary screen). Cells: human C33A cervical carcinoma cells (HPV-negative) stably expressing BPV1 E2 and an HPV18 LCR luciferase reporter. Reagents: siRNA pool against human genes, 40 nM. Duration: 72 h. Read-out: 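Per-well luciferase luminescence, z-scored on each plate against the plate mean and SD with control wells left out, then averaged across three replicate plates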. Direction: mean z-score and z-score: higher = stronger reporter signal, weaker E2 silencing. Call rule: 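Hit if mean z-score reaches 2 and two or more of three replicate z-scores also reach 2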.
In all, the deposit lists about 21,000 reagents; this is a random part of them. 497 of all reagents (2.4%) count as active. 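Higher z means weaker E2 silencing; only reporter increases were scored, and knock-downs that hurt cell survival may mask genuine repressor factors.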

gene	mean z-score	z-score, replicate A	z-score, replicate B	z-score, replicate C	Call
RALGDS (ral guanine nucleotide dissociation stimulator)	0.43	0.42	0.47	0.4	inactive
CDK13 (cyclin dependent kinase 13)	-0.67	-1.34	-0.25	-0.41	inactive
MBD4 (methyl-CpG binding domain 4, DNA glycosylase)	-1.3	-1.37	-1.11	-1.41	inactive
AVPR1A (arginine vasopressin receptor 1A)	-0.32	0.21	-0.22	-0.96	inactive
POLR3H (RNA polymerase III subunit H)	0.44	0.46	0.8	0.06	inactive
CUTC (cutC copper transporter)	0.89	1.02	1.16	0.48	inactive
PRMT9 (protein arginine methyltransferase 9)	-0.95	-0.75	-0.97	-1.12	inactive
RCOR3 (REST corepressor 3)	-0.06	0.18	-0.44	0.06	inactive
ZNF444 (zinc finger protein 444)	0.43	0.32	1.18	-0.21	inactive
TUBGCP3 (tubulin gamma complex component 3)	-0.25	-0.36	-0.14	-0.23	inactive
RPE (ribulose-5-phosphate-3-epimerase)	0.79	0.55	0.95	0.86	inactive
LOC400216 (retired record)	-0.03	0.12	0.29	-0.51	inactive
LINC01061 (long independently transcribed non-coding RNA 1061)	1.28	1.43	0.69	1.72	inactive
CIAO3 (cytosolic iron-sulfur assembly component 3)	-0.7	-1.24	-0.71	-0.15	inactive
C12orf43 (chromosome 12 open reading frame 43)	1.67	1.83	1.66	1.52	inactive
TTC27 (tetratricopeptide repeat domain 27)	-0.58	-0.74	-0.75	-0.25	inactive
PRR13 (proline rich 13)	0.84	0.86	0.86	0.79	inactive
LINC02898 (long independently transcribed non-coding RNA 2898)	-0.36	-0.26	-0.67	-0.17	inactive
S100A1 (S100 calcium binding protein A1)	1.73	1.7	1.93	1.57	inactive

Sorted by “z-score, replicate B” (lowest first): 9 of the entries above.
gene	mean z-score	z-score, replicate A	z-score, replicate B	z-score, replicate C	Call
PRMT9 (protein arginine methyltransferase 9)	-0.95	-0.75	-0.97	-1.12	inactive
CIAO3 (cytosolic iron-sulfur assembly component 3)	-0.7	-1.24	-0.71	-0.15	inactive
RCOR3 (REST corepressor 3)	-0.06	0.18	-0.44	0.06	inactive
TUBGCP3 (tubulin gamma complex component 3)	-0.25	-0.36	-0.14	-0.23	inactive
LOC400216 (retired record)	-0.03	0.12	0.29	-0.51	inactive
LINC01061 (long independently transcribed non-coding RNA 1061)	1.28	1.43	0.69	1.72	inactive
RPE (ribulose-5-phosphate-3-epimerase)	0.79	0.55	0.95	0.86	inactive
CUTC (cutC copper transporter)	0.89	1.02	1.16	0.48	inactive
ZNF444 (zinc finger protein 444)	0.43	0.32	1.18	-0.21	inactive

The list goes on.
gene	mean z-score	z-score, replicate A	z-score, replicate B	z-score, replicate C	Call
USO1 (USO1 vesicle transport factor)	-1.34	-1.29	-1.17	-1.56	inactive
METTL25B (methyltransferase like 25B)	-0.06	-0.34	0.11	0.06	inactive
DYNLT4 (dynein light chain Tctex-type 4)	1.04	1.29	1.04	0.79	inactive
SGCE (sarcoglycan epsilon)	-1	-1.32	-1.11	-0.58	inactive
LOC145846 (retired record)	1.11	0.9	1.43	0.99	inactive
MPO (myeloperoxidase)	1.38	1.3	1.34	1.52	inactive
ZNF785 (zinc finger protein 785)	-0.21	0	-0.26	-0.38	inactive
VGLL4 (vestigial like family member 4)	1.62	1.63	1.37	1.85	inactive
LRRC73 (leucine rich repeat containing 73)	0.29	0.06	0.34	0.47	inactive
RNF181 (ring finger protein 181)	-0.12	0.23	-0.72	0.14	inactive
ADAMTS13 (ADAM metallopeptidase with thrombospondin type 1 motif 13)	0.41	0.3	0.62	0.32	inactive
GRIK2 (glutamate ionotropic receptor kainate type subunit 2)	0.51	0.71	0.28	0.54	inactive
CTH (cystathionine gamma-lyase)	-1.17	-1.46	-1.37	-0.68	inactive
CERS5 (ceramide synthase 5)	0.44	0.23	0.58	0.5	inactive
DYNLT2 (dynein light chain Tctex-type 2)	2.02	2.03	1.84	2.18	active
LPAR4 (lysophosphatidic acid receptor 4)	-0.37	-0.1	-0.63	-0.38	inactive
ERLEC1 (endoplasmic reticulum lectin 1)	0.77	1.08	0.72	0.51	inactive
CFAP53 (cilia and flagella associated protein 53)	-0.19	-0.09	-0.32	-0.16	inactive
AFAP1L2 (actin filament associated protein 1 like 2)	0.22	0.33	0.34	-0.01	inactive
RNF7 (ring finger protein 7)	-0.08	0.04	-0.28	0.01	inactive
NRP2 (neuropilin 2)	2.43	1.92	2.47	2.91	active
FAP (fibroblast activation protein alpha)	0.57	0.48	0.88	0.35	inactive
PAFAH2 (platelet activating factor acetylhydrolase 2)	-0.6	-0.79	-0.6	-0.4	inactive
RPL14P1 (ribosomal protein L14 pseudogene 1)	-5.97	-6.2	-6.21	-5.5	inactive
RAMP3 (receptor activity modifying protein 3)	-0.37	-0.23	-0.41	-0.46	inactive
TMEM52 (transmembrane protein 52)	0.58	0.48	0.8	0.48	inactive
GLRA3 (glycine receptor alpha 3)	0.13	0.29	0.24	-0.13	inactive
DTNA (dystrobrevin alpha)	0.69	0.81	0.78	0.47	inactive
DCK (deoxycytidine kinase)	-0.88	-1.2	-0.57	-0.85	inactive
BDKRB2 (bradykinin receptor B2)	-0.17	0	-0.1	-0.4	inactive
ZNF107 (zinc finger protein 107)	0.13	0.36	0.02	0.02	inactive
ADM5 (adrenomedullin 5 (putative))	0.26	0.24	0.35	0.18	inactive
VNN3P (vanin 3, pseudogene)	0.63	0.72	0.53		inactive
ZNF365 (zinc finger protein 365)	0.42	0.51	0.18	0.57	inactive
INO80E (INO80 complex subunit E)	-1.59	-1.45	-1.44	-1.87	inactive
LGALS8 (galectin 8)	0.73	1.2	0.43	0.55	inactive
OVOL1 (ovo like transcriptional repressor 1)	-0.65	-0.73	-0.8	-0.42	inactive
SIRT6 (sirtuin 6)	0.65	0.71	0.61	0.63	inactive
